Molecular target: Nicotinic acetylcholine receptor alpha1/beta1/epsilon/delta (Mus musculus, UniProt P04756+P09690+P02716+P20782)
Experiment: Antagonist activity at mouse alpha1beta1deltaepsilon nACh receptor expressed in Xenopus oocyte assessed as inhibition of acetylcholine-induced response at -70 mV holding potential by voltage-clamp based electrophysiological assay

Sequences of proteins named here, by UniProt entry; tags and fusion partners are left off. Residues count along the entry.
UniProt P04756, 21-457 limits assumed: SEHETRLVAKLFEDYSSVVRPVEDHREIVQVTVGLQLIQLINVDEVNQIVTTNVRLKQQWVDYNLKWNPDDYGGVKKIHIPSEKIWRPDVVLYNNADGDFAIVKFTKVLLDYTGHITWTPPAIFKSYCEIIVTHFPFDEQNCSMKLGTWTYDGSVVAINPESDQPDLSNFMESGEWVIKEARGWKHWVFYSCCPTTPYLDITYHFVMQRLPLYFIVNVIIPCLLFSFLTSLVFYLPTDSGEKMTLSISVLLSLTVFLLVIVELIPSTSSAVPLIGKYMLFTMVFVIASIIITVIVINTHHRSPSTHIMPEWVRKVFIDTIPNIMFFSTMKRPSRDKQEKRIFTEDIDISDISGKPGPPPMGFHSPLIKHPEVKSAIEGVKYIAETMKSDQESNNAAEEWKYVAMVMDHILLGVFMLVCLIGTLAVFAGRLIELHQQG
UniProt P09690, 24-501 limits assumed: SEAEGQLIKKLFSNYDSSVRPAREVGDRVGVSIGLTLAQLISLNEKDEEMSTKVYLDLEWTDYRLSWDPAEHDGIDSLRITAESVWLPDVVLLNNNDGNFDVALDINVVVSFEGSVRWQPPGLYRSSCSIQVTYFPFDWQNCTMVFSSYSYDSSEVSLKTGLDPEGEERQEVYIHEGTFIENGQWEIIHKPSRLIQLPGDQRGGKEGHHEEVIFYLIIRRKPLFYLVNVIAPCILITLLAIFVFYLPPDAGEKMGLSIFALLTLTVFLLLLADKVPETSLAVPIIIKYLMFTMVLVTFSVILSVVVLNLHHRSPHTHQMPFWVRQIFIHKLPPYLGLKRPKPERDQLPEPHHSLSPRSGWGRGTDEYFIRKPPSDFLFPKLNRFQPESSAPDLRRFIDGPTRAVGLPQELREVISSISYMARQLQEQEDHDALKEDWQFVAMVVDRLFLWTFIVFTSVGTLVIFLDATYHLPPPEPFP
UniProt P02716, 25-520 limits assumed: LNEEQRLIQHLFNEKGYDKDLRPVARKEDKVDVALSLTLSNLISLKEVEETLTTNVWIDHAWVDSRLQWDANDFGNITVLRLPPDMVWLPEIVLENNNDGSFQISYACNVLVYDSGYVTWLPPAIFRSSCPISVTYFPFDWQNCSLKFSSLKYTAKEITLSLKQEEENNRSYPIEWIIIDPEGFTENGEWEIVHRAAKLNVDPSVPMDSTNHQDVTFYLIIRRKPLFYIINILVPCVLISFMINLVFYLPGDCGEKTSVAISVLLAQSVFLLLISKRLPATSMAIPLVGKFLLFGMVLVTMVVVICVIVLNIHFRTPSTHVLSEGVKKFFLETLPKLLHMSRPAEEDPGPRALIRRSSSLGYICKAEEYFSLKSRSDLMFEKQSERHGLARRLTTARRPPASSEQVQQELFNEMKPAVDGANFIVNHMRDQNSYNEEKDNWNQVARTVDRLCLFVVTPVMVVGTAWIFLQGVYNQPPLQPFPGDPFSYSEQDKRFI
UniProt P20782, 21-493 limits assumed: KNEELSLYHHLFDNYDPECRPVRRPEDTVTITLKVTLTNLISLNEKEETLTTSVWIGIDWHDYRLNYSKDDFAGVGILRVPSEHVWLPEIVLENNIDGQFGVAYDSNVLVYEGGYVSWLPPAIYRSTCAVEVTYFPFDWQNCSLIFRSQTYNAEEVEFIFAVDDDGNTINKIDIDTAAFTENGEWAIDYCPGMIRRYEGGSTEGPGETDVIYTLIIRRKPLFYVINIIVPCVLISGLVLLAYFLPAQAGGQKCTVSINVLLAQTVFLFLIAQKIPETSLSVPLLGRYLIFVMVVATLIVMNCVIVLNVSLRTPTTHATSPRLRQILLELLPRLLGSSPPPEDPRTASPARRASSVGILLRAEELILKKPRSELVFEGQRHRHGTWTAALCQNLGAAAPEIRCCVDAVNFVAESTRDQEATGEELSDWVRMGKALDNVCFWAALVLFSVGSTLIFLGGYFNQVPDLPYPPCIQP

| Compound | IC50 [µM] |
| --- | --- |
| CC[C@H](C)[C@@H]1NC(=O)[C@H](CCCNC(=N)N)NC(=O)[C@H](CCCNC(=N)N)NC(=O)[C@@H]2CSSC[C@H](NC(=O)[C@H](Cc3ccc(O)cc3)NC(=O)[C@H](CCCNC(=N)N)NC(=O)CNC(=O)[C@H](CO)NC(=O)[C@H](CO)NC(=O)[C@H](C)NC(=O)[C@@H](NC(=O)[C@@H](N)[C@@H](C)O)CSSC[C@@H](C(=O)N[C@H](C(=O)O)C(C)C)NC(=O)[C@H](C)NC(=O)[C@H](CC(=O)O)NC(=O)[C@H]([C@@H](C)O)NC1=O)C(=O)N[C@@H](CCCNC(=N)N)C(=O)N[C@@H](CO)C(=O)N1CCC[C@H]1C(=O)N[C@@H](Cc1ccc(O)cc1)C(=O)N[C@@H](CC(=O)O)C(=O)N[C@@H](CCCNC(=N)N)C(=O)N[C@@H](CCCNC(=N)N)C(=O)N[C@@H](CCCNC(=N)N)C(=O)N[C@@H](CCCNC(=N)N)C(=O)N[C@@H](Cc1ccc(O)cc1)C(=O)N2 | 2.18 |
| CC[C@H](C)[C@@H]1NC(=O)[C@H](CCCNC(=N)N)NC(=O)[C@H](CCCNC(=N)N)NC(=O)[C@@H](NC(=O)[C@H](Cc2ccc(O)cc2)NC(=O)[C@H](CCCNC(=N)N)NC(=O)[C@H](CCCNC(=N)N)NC(=O)[C@H](CCCNC(=N)N)NC(=O)[C@H](CCCNC(=N)N)NC(=O)[C@H](CC(=O)O)NC(=O)[C@H](Cc2ccc(O)cc2)NC(=O)[C@@H]2CCCN2C(=O)[C@H](CO)NC(=O)[C@H](CCCNC(=N)N)NC(=O)[C@@H]2CSSC[C@H](NC(=O)[C@@H](N)[C@@H](C)O)C(=O)N[C@@H](CCCNC(=N)N)C(=O)N[C@@H](CO)C(=O)N[C@@H](CO)C(=O)NCC(=O)N[C@@H](CCCNC(=N)N)C(=O)N[C@@H](C)C(=O)N2)CSSC[C@@H](C(=O)N[C@H](C(=O)O)C(C)C)NC(=O)[C@H](C)NC(=O)[C@H](CC(=O)O)NC(=O)[C@H]([C@@H](C)O)NC1=O | 1.92 |
| CC[C@H](C)[C@H]1NC(=O)[C@H](CCCNC(=N)N)NC(=O)[C@H](CCCNC(=N)N)NC(=O)[C@@H](NC(=O)[C@H](Cc2ccc(O)cc2)NC(=O)[C@H](CCCNC(=N)N)NC(=O)[C@H](CCCNC(=N)N)NC(=O)[C@H](CCCNC(=N)N)NC(=O)[C@H](CCCNC(=N)N)NC(=O)[C@H](CC(=O)O)NC(=O)[C@H](Cc2ccc(O)cc2)NC(=O)[C@@H]2CCCN2C(=O)[C@H](CO)NC(=O)[C@H](CCCNC(=N)N)NC(=O)[C@@H]2CSSC[C@H](NC(=O)[C@@H](N)[C@@H](C)O)C(=O)N[C@@H](C)C(=O)N[C@@H](CO)C(=O)N[C@@H](CO)C(=O)NCC(=O)N[C@@H](CCCNC(=N)N)C(=O)N[C@@H](Cc3ccc(O)cc3)C(=O)N2)CSSC[C@@H](C(=O)N[C@H](C(=O)O)C(C)C)NC(=O)[C@H](C)NC(=O)[C@H](CC(=O)O)NC(=O)[C@H]([C@@H](C)O)NC1=O | 1.94 |
| CC[C@H](C)[C@@H]1NC(=O)[C@H](CCCNC(=N)N)NC(=O)[C@H](CCCNC(=N)N)NC(=O)[C@@H]2CSSC[C@H](NC(=O)[C@H](Cc3ccc(O)cc3)NC(=O)[C@H](CCCNC(=N)N)NC(=O)CNC(=O)[C@H](CO)NC(=O)[C@H](CO)NC(=O)[C@H](CCCNC(=N)N)NC(=O)[C@@H](NC(=O)[C@@H](N)[C@@H](C)O)CSSC[C@@H](C(=O)N[C@@H](C)C(=O)O)NC(=O)[C@H](C)NC(=O)[C@H](CC(=O)O)NC(=O)[C@H]([C@@H](C)O)NC1=O)C(=O)N[C@@H](CCCNC(=N)N)C(=O)N[C@@H](CO)C(=O)N1CCC[C@H]1C(=O)N[C@@H](Cc1ccc(O)cc1)C(=O)N[C@@H](CC(=O)O)C(=O)N[C@@H](CCCNC(=N)N)C(=O)N[C@@H](CCCNC(=N)N)C(=O)N[C@@H](CCCNC(=N)N)C(=O)N[C@@H](CCCNC(=N)N)C(=O)N[C@@H](Cc1ccc(O)cc1)C(=O)N2 | 1.25 |
| CC[C@H](C)[C@@H]1NC(=O)[C@H](CCCNC(=N)N)NC(=O)[C@H](CCCNC(=N)N)NC(=O)[C@@H](NC(=O)[C@H](Cc2ccc(O)cc2)NC(=O)[C@H](CCCNC(=N)N)NC(=O)[C@H](CCCNC(=N)N)NC(=O)[C@H](CCCNC(=N)N)NC(=O)[C@H](CCCNC(=N)N)NC(=O)[C@H](CC(=O)O)NC(=O)[C@H](Cc2ccc(O)cc2)NC(=O)[C@@H]2CCCN2C(=O)[C@H](CO)NC(=O)[C@H](CCCNC(=N)N)NC(=O)[C@@H]2CSSC[C@H](NC(=O)[C@@H](N)[C@@H](C)O)C(=O)N[C@@H](CCCNC(=N)N)C(=O)N[C@@H](CO)C(=O)N[C@@H](CO)C(=O)NCC(=O)N[C@@H](CCCNC(=N)N)C(=O)N[C@@H](Cc3ccc(O)cc3)C(=O)N2)CSSC[C@@H](C(=O)N[C@H](C(=O)O)C(C)C)NC(=O)[C@H](C)NC(=O)[C@H](CC(=O)O)NC(=O)[C@H](C)NC1=O | 3.9 |
| CC[C@H](C)[C@@H]1NC(=O)[C@H](CCCNC(=N)N)NC(=O)[C@H](CCCNC(=N)N)NC(=O)[C@@H]2CSSC[C@H](NC(=O)[C@H](Cc3ccc(O)cc3)NC(=O)[C@H](CCCNC(=N)N)NC(=O)CNC(=O)[C@H](CO)NC(=O)[C@H](CO)NC(=O)[C@H](CCCNC(=N)N)NC(=O)[C@@H](NC(=O)[C@@H](N)[C@@H](C)O)CSSC[C@@H](C(=O)N[C@H](C(=O)O)C(C)C)NC(=O)[C@H](C)NC(=O)[C@H](CC(=O)O)NC(=O)[C@H](C)NC1=O)C(=O)N[C@@H](CCCNC(=N)N)C(=O)N[C@@H](CO)C(=O)N1CCC[C@H]1C(=O)N[C@@H](Cc1ccc(O)cc1)C(=O)N[C@@H](CC(=O)O)C(=O)N[C@@H](CCCNC(=N)N)C(=O)N[C@@H](CCCNC(=N)N)C(=O)N[C@@H](CCCNC(=N)N)C(=O)N[C@@H](CCCNC(=N)N)C(=O)N[C@@H](Cc1ccc(O)cc1)C(=O)N2 | 0.71 |
| CC[C@H](C)[C@@H]1NC(=O)[C@H](CCCNC(=N)N)NC(=O)[C@H](CCCNC(=N)N)NC(=O)[C@@H](NC(=O)[C@H](Cc2ccc(O)cc2)NC(=O)[C@H](C)NC(=O)[C@H](CCCNC(=N)N)NC(=O)[C@H](CCCNC(=N)N)NC(=O)[C@H](CCCNC(=N)N)NC(=O)[C@H](CC(=O)O)NC(=O)[C@H](Cc2ccc(O)cc2)NC(=O)[C@@H]2CCCN2C(=O)[C@H](CO)NC(=O)[C@H](CCCNC(=N)N)NC(=O)[C@@H]2CSSC[C@H](NC(=O)[C@@H](N)[C@@H](C)O)C(=O)N[C@@H](CCCNC(=N)N)C(=O)N[C@@H](CO)C(=O)N[C@@H](CO)C(=O)NCC(=O)N[C@@H](CCCNC(=N)N)C(=O)N[C@@H](Cc3ccc(O)cc3)C(=O)N2)CSSC[C@@H](C(=O)N[C@H](C(=O)O)C(C)C)NC(=O)[C@H](C)NC(=O)[C@H](CC(=O)O)NC(=O)[C@H]([C@@H](C)O)NC1=O | 6.83 |
| CC(C)[C@H](NC(=O)[C@@H]1CSSC[C@H](NC(=O)[C@@H](N)[C@@H](C)O)C(=O)N[C@@H](CCCNC(=N)N)C(=O)N[C@@H](CO)C(=O)N[C@@H](CO)C(=O)NCC(=O)N[C@@H](CCCNC(=N)N)C(=O)N[C@@H](Cc2ccc(O)cc2)C(=O)N[C@H]2CSSC[C@H](NC(=O)[C@H](Cc3ccc(O)cc3)NC(=O)[C@H](CCCNC(=N)N)NC(=O)[C@H](CCCNC(=N)N)NC(=O)[C@H](CCCNC(=N)N)NC(=O)[C@H](CCCNC(=N)N)NC(=O)[C@H](CC(=O)O)NC(=O)[C@H](Cc3ccc(O)cc3)NC(=O)[C@@H]3CCCN3C(=O)[C@H](CO)NC(=O)[C@H](CCCNC(=N)N)NC2=O)C(=O)N[C@@H](CCCNC(=N)N)C(=O)N[C@@H](CCCNC(=N)N)C(=O)N[C@@H](C)C(=O)N[C@@H]([C@@H](C)O)C(=O)N[C@@H](CC(=O)O)C(=O)N[C@@H](C)C(=O)N1)C(=O)O | 0.93 |
| CC[C@H](C)[C@@H]1NC(=O)[C@H](CCCNC(=N)N)NC(=O)[C@H](CCCNC(=N)N)NC(=O)[C@@H]2CSSC[C@H](NC(=O)[C@H](Cc3ccc(O)cc3)NC(=O)[C@H](CCCNC(=N)N)NC(=O)CNC(=O)[C@H](CO)NC(=O)[C@H](C)NC(=O)[C@H](CCCNC(=N)N)NC(=O)[C@@H](NC(=O)[C@@H](N)[C@@H](C)O)CSSC[C@@H](C(=O)N[C@H](C(=O)O)C(C)C)NC(=O)[C@H](C)NC(=O)[C@H](CC(=O)O)NC(=O)[C@H]([C@@H](C)O)NC1=O)C(=O)N[C@@H](CCCNC(=N)N)C(=O)N[C@@H](CO)C(=O)N1CCC[C@H]1C(=O)N[C@@H](Cc1ccc(O)cc1)C(=O)N[C@@H](CC(=O)O)C(=O)N[C@@H](CCCNC(=N)N)C(=O)N[C@@H](CCCNC(=N)N)C(=O)N[C@@H](CCCNC(=N)N)C(=O)N[C@@H](CCCNC(=N)N)C(=O)N[C@@H](Cc1ccc(O)cc1)C(=O)N2 | 0.91 |
| CC[C@H](C)[C@@H]1NC(=O)[C@H](C)NC(=O)[C@H](CCCNC(=N)N)NC(=O)[C@@H](NC(=O)[C@H](Cc2ccc(O)cc2)NC(=O)[C@H](CCCNC(=N)N)NC(=O)[C@H](CCCNC(=N)N)NC(=O)[C@H](CCCNC(=N)N)NC(=O)[C@H](CCCNC(=N)N)NC(=O)[C@H](CC(=O)O)NC(=O)[C@H](Cc2ccc(O)cc2)NC(=O)[C@@H]2CCCN2C(=O)[C@H](CO)NC(=O)[C@H](CCCNC(=N)N)NC(=O)[C@@H]2CSSC[C@H](NC(=O)[C@@H](N)[C@@H](C)O)C(=O)N[C@@H](CCCNC(=N)N)C(=O)N[C@@H](CO)C(=O)N[C@@H](CO)C(=O)NCC(=O)N[C@@H](CCCNC(=N)N)C(=O)N[C@@H](Cc3ccc(O)cc3)C(=O)N2)CSSC[C@@H](C(=O)N[C@H](C(=O)O)C(C)C)NC(=O)[C@H](C)NC(=O)[C@H](CC(=O)O)NC(=O)[C@H]([C@@H](C)O)NC1=O | 5.49 |
| CC[C@H](C)[C@@H]1NC(=O)[C@H](CCCNC(=N)N)NC(=O)[C@H](CCCNC(=N)N)NC(=O)[C@@H](NC(=O)[C@H](Cc2ccc(O)cc2)NC(=O)[C@H](CCCNC(=N)N)NC(=O)[C@H](CCCNC(=N)N)NC(=O)[C@H](CCCNC(=N)N)NC(=O)[C@H](CCCNC(=N)N)NC(=O)[C@H](CC(=O)O)NC(=O)[C@H](Cc2ccc(O)cc2)NC(=O)[C@H](C)NC(=O)[C@H](CO)NC(=O)[C@H](CCCNC(=N)N)NC(=O)[C@@H]2CSSC[C@H](NC(=O)[C@@H](N)[C@@H](C)O)C(=O)N[C@H](CCCNC(=N)N)C(=O)N[C@@H](CO)C(=O)N[C@@H](CO)C(=O)NCC(=O)N[C@@H](CCCNC(=N)N)C(=O)N[C@@H](Cc3ccc(O)cc3)C(=O)N2)CSSC[C@@H](C(=O)N[C@H](C(=O)O)C(C)C)NC(=O)[C@H](C)NC(=O)[C@H](CC(=O)O)NC(=O)[C@H]([C@@H](C)O)NC1=O | 0.85 |

Reference: ChEMBL document CHEMBL5346973 (J Med Chem, 2023)
